Results of unrelated studies side by side (data: NIAID ChemDB).

Shared fields: whole-cell or culture tests; agent: Mycobacterium tuberculosis

ECn is the concentration giving n% inhibition of infection, replication or growth.

compound | tested at | method | read-out | setting | strain | result
CN[C@@H]1[C@H](O[C@H]2[C@H](O[C@H]3[C@H](O)[C@@H](O)[C@H](N=C(N)N)[C@@H](O)[C@@H]3N=C(N)N)O[C@@H](C)[C@]2(O)C=O)O[C@@H](CO)[C@H](O)[C@H]1O |  |  | EC50 |  | 89 drug-resistant isolates | <5 µg/mL
Cc1ccc(Cc2nn(C)c(=O)n2-n2cccc2)cc1 |  | BACTEC | MIC bound |  | H37Rv | >12.5 µg/mL
CCc1cc(C(N)=S)ccn1 |  | visual reading | MIC |  | H37Rv | 5 µg/mL
N/C(=N/N=C/c1ccc(Cl)cc1)c1ccccn1 |  |  | MIC |  | H37Rv | 64 µg/mL
CCCCCCCNC(=O)NNC(=O)c1ccncc1 |  | broth dilution | MIC100 | 14 d | My 331/88 | 16 µM
CN[C@@H]1[C@H](O[C@H]2[C@H](O[C@H]3[C@H](O)[C@@H](O)[C@H](N=C(N)N)[C@@H](O)[C@@H]3N=C(N)N)O[C@@H](C)[C@]2(O)C=O)O[C@@H](CO)[C@H](O)[C@H]1O |  |  | MIC |  | H37Rv | 5 µg/mL
Clc1ccc(-n2cc(C3CC(c4ccc5c(c4)CCO5)=NN3)c(-c3cccs3)n2)cc1 |  | resazurin | MIC |  | H37Rv | 25 µg/mL
COC(=O)[C@]1(C)CCC[C@]2(C)c3ccc(C(C)C)cc3C(=O)[C@@H](Br)[C@@]12C |  | BACTEC | MIC bound |  | H37Rv | >12.5 µg/mL
O=C(O)c1c(=O)c2cc([N+](=O)[O-])c(N3CCN(Cc4ccc5c(c4)OCO5)CC3)nc2n2c1sc1ccccc12 |  |  | MIC100 |  | H37Rv (MTB) | 5.59 µM
COc1cc(-c2ccccc2)nc2ccccc12 |  |  | MIC |  | H37Rv | 16 µg/mL
NC(=O)NNC(=O)c1cc([N+](=O)[O-])cc([N+](=O)[O-])c1 | 12.5 µg/mL | BACTEC | inhibition |  | H37Rv | 0%
Cc1ccc(-c2nn(-c3ccc(Cl)cc3)cc2C2CC(c3ccc(C)o3)=NN2)cc1 |  | resazurin | MIC |  | H37Rv | 25 µg/mL
CCCCCCCC/C=C\CCCCCCCCOCC(O)CO | 128 µg/mL | BACTEC | inhibition |  | H37Rv | 90%
NNC(=O)c1cc(C2CCCCC2)nc2ccccc12 |  | BACTEC | MIC |  | H37Ra | >6.25 µg/mL
O=C(O)c1cn2c(n1)CN(c1nc3c(cc1[N+](=O)[O-])c(=O)c(C(=O)O)c1sc4ccccc4n13)CC2 |  |  | MIC100 |  | H37Rv (MTB) | 3.08 µM
CC(C)=CCC/C(C)=C/CNCCNCCC12OC3(CCNCCNC/C=C(\C)CCC=C(C)C)C4C5CC(C6C5C3C61)C42 |  | BACTEC | MIC |  | H37Rv | 1 µM
O=C(c1cccc(C(=O)c2ccc3c4c(cccc24)C(=O)N(c2ccccc2)C3=O)c1)c1ccc2c3c(cccc13)C(=O)N(c1ccccc1)C2=O | 12.5 µg/mL | BACTEC | inhibition |  | H37Rv | 6%
COc1cc(/C=N/N=C(\N)c2ccccn2)cc(OC)c1 |  |  | MIC |  | H37Rv | 256 µg/mL
CCOC(=O)[C@H]1O[C@@H]([C@@]2(C)O[C@]3(O[C@]4(C=C[C@H]3O)O[C@H]([C@@H](C)C(=O)[C@@H](C)[C@@H](O)[C@H](C)C[C@H](C)c3c(Cl)cc(C)c(O)c3C(=O)O)[C@@H](C)C[C@H]4C)[C@H](C)[C@H]2OC)C[C@H]1O |  |  | MIC |  | TAC-R | 6.3 µg/mL
Nc1ccc(C(=O)O)c(O)c1 |  |  | MIC |  | H37RV (DL8280-R) | 0.1 µg/mL
CCCN(CCC)N(CCC)C(=O)COc1cc2c(O)c3c(O)c(C)c4c(c13)C(=O)[C@@](C)(O/C=C/[C@H](OC)[C@@H](C)[C@@H](OC(C)=O)[C@H](C)[C@H](O)[C@H](C)[C@@H](O)[C@@H](C)/C=C/C=C(/C)C(=O)N2)O4 |  |  | EC50 |  |  | 0.09 µg/mL
O=C(NNC(=O)c1ccncc1)Nc1ccc(Cl)c(C(F)(F)F)c1 |  | broth dilution | MIC100 | 14 d | My 331/88 | 32 µM
O=C(/C=C/c1ccccc1Cl)c1cc2c(cc1O)OC1(CCCCC1)CC2=O |  | agar | MIC |  | H37Rv | 25 µg/mL
CCC(=O)Nc1ccc2cc(-c3cc(C(=O)O)ccc3CN(C)C3CCCCC3)c(=O)oc2c1 |  | resazurin | MIC |  | H37Rv | 8 µg/mL
CO[C@H]1/C=C/O[C@@]2(C)Oc3c(C)c(O)c4c(O)c(cc(OCC(=O)N(C)N(C)C)c4c3C2=O)NC(=O)/C(C)=C\C=C\[C@H](C)[C@H](O)[C@@H](C)[C@@H](O)[C@@H](C)[C@H](OC(C)=O)[C@@H]1C |  |  | EC50 |  |  | 0.18 µg/mL
COc1cc2c(cc1OC)CN(c1nc3c(cc1[N+](=O)[O-])c(=O)c(C(=O)O)c1sc4ccccc4n13)CC2 |  |  | MIC100 |  | H37Rv (MTB) | 1.46 µM
CO[C@H]1/C=C/O[C@@]2(C)Oc3c(C)c(O)c4c(O)c(cc(OCC(=O)NN)c4c3C2=O)NC(=O)/C(C)=C\C=C\[C@H](C)[C@H](O)[C@@H](C)[C@@H](O)[C@@H](C)[C@H](OC(C)=O)[C@@H]1C |  |  | EC50 |  |  | 0.15 µg/mL
N/C(=N/N=C/c1ccc(Br)cc1)c1ccccn1 |  |  | MIC |  | H37Rv | 16 µg/mL
CCOC(=O)Nc1c(C#N)[n+]([O-])c2cc(C)c(C)cc2[n+]1[O-] |  |  | MIC |  | H37Rv | <12.5 µg/mL
Clc1ccc2c(c1)N(C1CCCN(Cc3ccccc3)C1)c1ccccc1S2.O=C(O)/C=C\C(=O)O |  | BACTEC | MIC bound |  | H37Rv | >12.5 µg/mL
O=C(O)c1c(=O)c2cc([N+](=O)[O-])c(N3CCC4(CC3)OCCO4)nc2n2c1sc1ccccc12 |  |  | MIC100 |  | H37Rv (MTB) | 0.19 µM
COc1cc(CN2Cc3c(N)nc(N)nc3C2=O)cc(OC)c1C |  | BACTEC | MIC bound |  | H37Rv | >12.8 µg/mL
CC(C)(C)OC(=O)N1CCC2(CC1)CC(=O)c1cc(C(=O)/C=C/c3ccc(F)cc3)c(O)cc1O2 |  | agar | MIC |  | H37Rv | 6.25 µg/mL
NNC(=O)Cc1cc(C2C3CC4CC(C3)CC2C4)nc2ccccc12 |  | BACTEC | MIC |  | H37Ra | >6.25 µg/mL
CCN(CC)C(=O)C1CCCN(c2nc3c(cc2[N+](=O)[O-])c(=O)c(C(=O)O)c2sc4ccccc4n23)C1 |  |  | MIC100 |  | H37Rv (MTB) | 1.49 µM
CCCN(CCC)N(C)C(=O)COc1cc2c(O)c3c(O)c(C)c4c(c13)C(=O)[C@@](C)(O/C=C/[C@H](OC)[C@@H](C)[C@@H](OC(C)=O)[C@H](C)[C@H](O)[C@H](C)[C@@H](O)[C@@H](C)/C=C/C=C(/C)C(=O)N2)O4 |  |  | EC50 |  |  | 0.37 µg/mL
NNC(=O)c1cccs1 |  | visual reading | MIC |  | H37Rv | 5–10 µg/mL
Cc1cc2c(cc1C)[n+](=O)c(C(=O)C/C(=N\NC(=O)c1ccccc1O)C(=O)Nc1ccccc1C(C)C)c(C)n2[O-] |  | BACTEC | MIC bound |  | H37Rv | >12.5 µg/mL
N/C(=N\N=C\c1ccc(Cl)c([N+](=O)[O-])c1)c1ccccn1 |  |  | MIC |  | H37Rv | >256 µg/mL
COc1ccc(-c2nn(-c3ccc(Cl)cc3)cc2C2CC(c3ccc4c(c3)CCO4)=NN2)cc1 |  | resazurin | MIC |  | H37Rv | 50 µg/mL
COc1ccc2c3c1OC1C4(OC)C=CC5(c6c(OC)ccc(O)c64)C(C2)N(C)CCC315 | 6.25 µg/mL | BACTEC | inhibition |  | H37Rv | 0%
CCN(C(=O)COc1cc2c(O)c3c(O)c(C)c4c(c13)C(=O)[C@@](C)(O/C=C/[C@H](OC)[C@@H](C)[C@@H](OC(C)=O)[C@H](C)[C@H](O)[C@H](C)[C@@H](O)[C@@H](C)/C=C/C=C(/C)C(=O)N2)O4)N1CCOCC1 |  |  | EC50 |  |  | 0.37 µg/mL
CC1COc2c(N3CCN(C)CC3)c(F)cc3c(=O)c(C(=O)O)cn1c23 |  |  | MIC |  | H37Rv | 0.63 µg/mL
NNC(=O)c1ccncc1 |  | broth dilution | MIC100 | 14 d | My 331/88 | 0.5 µM
Clc1ccc(-c2nn(-c3ccc(Cl)cc3)cc2C2CC(c3ccc(-c4ccccc4)cc3)=NN2)cc1 |  | resazurin | MIC |  | H37Rv | 50 µg/mL
CN(C)CCCNC(=O)Nc1c(C#N)[n+]([O-])c2ccccc2[n+]1[O-] |  |  | MIC |  | H37Rv | >12.5 µg/mL
Cc1cc2c(cc1Cl)SC(NNC(=O)c1ccncc1)=NS2(=O)=O | 0.5 µM | BACTEC | inhibition |  |  | 0%
CCc1cc(C(N)=S)ccn1 |  |  | EC50 |  | 91 drug-resistant isolates | <20 µg/mL
NNC(=O)Cc1csc2ccccc12 | 12.5 µg/mL | BACTEC | inhibition |  | H37Rv | 0%
N#Cc1ccc2c(c1)[n+]([O-])c(C#N)c(N)[n+]2[O-] | 6.25 µg/mL |  | inhibition |  | H37Rv | 97%
COC(=O)c1nn2ccc3ccccc3c2c1C(=O)OC | 6.25 µg/mL | resazurin | inhibition |  | H37Rv | -8%
CC1(C)COCN1c1nc2c(cc1[N+](=O)[O-])c(=O)c(C(=O)O)c1sc3ccccc3n12 |  |  | MIC100 |  | H37Rv (MTB) | 3.54 µM
O=C(/C=C/c1ccc2c(c1)OCO2)c1cc2c(cc1O)OC1(CCCCC1)CC2=O |  | agar | MIC |  | H37Rv | >25 µg/mL
NC(=S)c1cnccn1 |  | resazurin | MIC bound |  |  | >6.25 µg/mL
O=C(O)c1c(=O)c2cc([N+](=O)[O-])c(N3CCC(N4CCCCC4)CC3)nc2n2c1sc1ccccc12 |  |  | MIC100 |  | H37Rv (MTB) | 1.54 µM
Cc1ccc(NC(=O)CCc2nnc(N)o2)cc1 |  | BACTEC | MIC bound |  | H37Rv | >12.5 µg/mL
COc1cccc(/C=C/C(=O)c2cc3c(cc2O)OC2(CCCCC2)CC3=O)c1 |  | agar | MIC |  | H37Rv | >25 µg/mL
NNC(=O)c1c(C2CCCCC2)nc2ccccc2c1C1CCCCC1 |  | BACTEC | MIC |  | H37Ra | >6.25 µg/mL
CCCCCCCCO[C@H]1O[C@H](CO)[C@@H](O[C@H]2O[C@H](CO)[C@@H](OC)[C@@H]2O)[C@@H]1O |  |  | EC50 |  | H37Rv | >6.25 µg/mL
COc1ccccc1-c1cn(O)c2nc(=N)nc(N)c-2n1 | 12.5 µg/mL | BACTEC | inhibition |  | H37Rv | 3%
COc1ccc2c(c1)[n+]([O-])c(C#N)c(NC(=O)OC(C)C)[n+]2[O-] | 6.25 µg/mL |  | inhibition |  | H37Rv | 99%
Cc1ccc(C2=NNC(c3cn(-c4ccc(Cl)cc4)nc3-c3ccc(Cl)cc3)C2)o1 |  | resazurin | MIC |  | H37Rv | 25 µg/mL
O=C(NNC(=O)c1ccncc1)Nc1ccc(F)c(C(F)(F)F)c1 |  | broth dilution | MIC100 | 14 d | My 331/88 | 32 µM
Cc1ccc(C)c(/C=N/N=C(\N)c2ccccn2)c1 |  |  | MIC |  | H37Rv | 256 µg/mL
CCN(CC)C(=O)c1cc(=O)c(C)c2oc3c(C)c(O)c(N)c(C(=O)N(CC)CC)c3nc1-2 | 12.5 µg/mL | BACTEC | inhibition |  | H37Rv | 8%
Cc1onc(-c2c(F)cccc2F)c1C(=O)N1CCN(c2nc3c(cc2[N+](=O)[O-])c(=O)c(C(=O)O)c2sc4ccccc4n23)CC1 |  |  | MIC100 |  | H37Rv (MTB) | 9.67 µM
NNC(=O)c1cc(C2C3CC4CC(C3)CC2C4)c2ccccc2n1 | 6.25 µg/mL | BACTEC | inhibition |  | H37Ra | 99%
CCOC(=O)NC(C)(C)CN(C(=O)OCC)C(C)(C)CO | 12.8 µg/mL | BACTEC | inhibition |  | H37Rv | 14%
NNC(=O)c1cc(C2CCCCC2)c2cccc(C3CCCCC3)c2n1 |  | BACTEC | MIC |  | H37Ra | >6.25 µg/mL
CC(C)=CCC/C(C)=C/CNC(=O)CNC(=O)CC1(O)C2C3CC4C5C3C1C5C(O)(CC(=O)NCC(=O)NC/C=C(\C)CCC=C(C)C)C42 |  | BACTEC | MIC |  | H37Rv | >50 µM
COc1ccc(/C=C/C(=O)c2cc3c(cc2O)OC2(CCN(C(=O)OC(C)(C)C)CC2)CC3=O)cc1 |  | agar | MIC |  | H37Rv | 25 µg/mL
CCCCCCCNC(=O)c1cc(C2C3CC4CC(C3)CC2C4)c2ccccc2n1 |  | BACTEC | MIC |  | H37Ra | >6.25 µg/mL
CCOC(=O)c1c(C(=O)OCC)c(C)n(/N=N/n2c(C)c(C(=O)OCC)c(C(=O)OCC)c2C)c1C |  | BACTEC | MIC bound |  | H37Rv | >12.5 µg/mL
NNC(=O)Cc1cc(C2CCCC2)nc2c(C3CCCC3)cccc12 |  | BACTEC | MIC |  | H37Ra | >6.25 µg/mL
O=C1NN(C2=NNC3(C(=O)N2)c2ccccc2-c2ccccc23)C(c2ccccc2)=N/C1=C\c1ccc(Cl)cc1 |  | BACTEC | MIC bound |  | H37Rv | >12.5 µg/mL
N/C(=N/N=C/c1cccc(Br)c1)c1ccccn1 |  |  | MIC |  | H37Rv | 64 µg/mL
NNC(=O)c1cc(C2CCCC2)c2cccc(C3CCCC3)c2n1 | 6.25 µg/mL | BACTEC | inhibition |  | H37Ra | 92%

For reference, 4 entries again:

compound	tested at	method	read-out	setting	strain	result
Cc1ccc(Cc2nn(C)c(=O)n2-n2cccc2)cc1		BACTEC	MIC bound		H37Rv	>12.5 µg/mL
CCCCCCCC/C=C\CCCCCCCCOCC(O)CO	128 µg/mL	BACTEC	inhibition		H37Rv	90%
CC(C)(C)OC(=O)N1CCC2(CC1)CC(=O)c1cc(C(=O)/C=C/c3ccc(F)cc3)c(O)cc1O2		agar	MIC		H37Rv	6.25 µg/mL
COc1cc2c(cc1OC)CN(c1nc3c(cc1[N+](=O)[O-])c(=O)c(C(=O)O)c1sc4ccccc4n13)CC2			MIC100		H37Rv (MTB)	1.46 µM

Two numbers with a dash give a range or band. Percent inhibition refers to the dose given; in toxicity tests it is the harm to the cells. An empty or dashed field is not shown. A number after MIC or MFC names an inhibition level or a share of isolates. Neighbouring rows are from separate reports. MIC bound: limit read from a one-dose screen.